Compound potency records, mixed from different reports. Data source: NIAID ChemDB in PubChem.

All rows: whole-cell or culture tests; agent: Mycobacterium avium; measure: MIC

Blank or dashed fields: not listed here. Lines come from different laboratories, so protocols vary.

| compound | strain or isolate | setting | value |
|---|---|---|---|
| COc1cccc(C(=O)NCc2cccnc2)c1O | ATCC 25291 | 21 d | 1000 µM |
| Cc1ccc2oc(=O)n(-c3cccc(Cl)c3)c(=O)c2c1 | CNCTC MY330/88 |  | 32 µM |
| Cn1cnnc1SCc1ccc(C#N)cc1 | MY330/88 |  | >1000 µM |
| Cc1ccc2oc(=O)n(-c3ccc(Cl)c(Cl)c3)c(=O)c2c1 | CNCTC MY330/88 |  | 8 µM |
| CCCCCCOc1ccccc1NC(=O)OCC[N+]1(CCC)CCCCC1 | MY330/88 |  | 125 µM |
| CCCCCCOc1ccccc1NC(=O)OC(C)CN1CCCCC1 | MY330/88 |  | 62.5 µM |
| COc1ccc(C(=O)NCc2cccnc2)c(O)c1 | ATCC 25291 | 21 d | 1000 µM |
| CCCCCCCCCCC[N+]1(CCOC(=O)Nc2ccccc2OCCCCCC)CCCCC1 | MY330/88 |  | 16 µM |
| c1ccc(CCSc2ncnc3ccccc23)cc1 | D 5/93 |  | 63 µM |
| CC(=O)NC[C@H]1CN(c2ccc(N3CCN(c4ccc([N+](=O)[O-])s4)CC3)c(F)c2)C(=O)O1 | ATCC700897 |  | <0.125 µg/mL |
| N/C(=N\NC(CC(=O)c1ccc(Cl)c(Cl)c1)c1ccncc1)c1ccccn1 | 485 |  | 8 µg/mL |
| O=C(Nc1ccccc1)c1ncccc1O | CNCTC MY330/88 |  | 250 µM |
| c1ccc(CSc2nnn(-c3ccccc3)n2)cc1 | CNCTC MY330/88 |  | 125 µM |
| Cc1nc2scc(-c3ccco3)c2c(=O)n1/N=C/c1ccc([N+](=O)[O-])cc1 | CNCTC MY330/88 |  | 7 µM |
| Clc1ccc(-n2nnc(SCc3ccccc3)n2)cc1Cl | CNCTC MY330/88 |  | 125 µM |
| Cc1c(CN2CCN(C)CC2)cc(-c2ccc(Cl)cc2)n1-c1ccc(Cl)cc1 | 103317 |  | 0.4 µg/mL |
| CCc1cc(C(N)=S)ccn1 | 168-4 |  | 2.5 µg/mL |
| O=c1oc2ccccc2c(=O)n1-c1cccc(F)c1 | CNCTC MY330/88 |  | 62 µM |
| O=C(Nc1ccc(Cl)c(Cl)c1)c1ncccc1S | CNCTC MY330/88 |  | 62.5 µM |
| O=C(NCc1cccnc1)c1cc(Br)cc(Br)c1O | ATCC 25291 | 14 d | 1000 µM |
| CCCCCCSc1ncnc2ccccc12 | CNCTC MY66/72 |  | 63 µM |
| CCCCCOc1ccccc1NC(=O)OCC[N+]1(CC)CCCCC1 | MY330/88 |  | 1000 µM |
| FC(F)(F)c1cccc(CSc2ncn[nH]2)c1 | MY330/88 |  | 250 µM |
| Cc1nc2scc(-c3ccco3)c2c(=O)n1NC(=O)C1CC1 | CNCTC MY330/88 |  | 89 µM |
| O=C(Nc1ccc([N+](=O)[O-])cc1)c1ccccc1O | CNCTC MY330/88 |  | 31 µM |
| CCCCCCCOc1cccc(NC(=O)OC(C)CN2CCCCC2)c1 | MY330/88 |  | 16 µM |
| Clc1cccc(CSc2ncn[nH]2)c1 | MY330/88 |  | 500 µM |
| CC(C)N=C(N)/N=C(\N)NOCCCOc1ccc(Cl)c(Cl)c1 | LPR |  | 16.6 µg/mL |
| CCCCCCCCCCCCCCCCSc1ncnc2ccccc12 | D 5/93 |  | >1000 µM |
| O=C(NCc1cccc([N+](=O)[O-])c1)c1ncccc1O | CNCTC MY330/88 |  | 125 µM |
| COc1ccc(-n2nnc(SCc3ccc(C)cc3)n2)cc1 | CNCTC MY330/88 |  | 62.5 µM |
| Cc1ccc2occ(C=O)c(=O)c2c1 | MY330/88 |  | 1000 µM |
| COc1ccc2c(=O)n(-c3cccc(Cl)c3)c(=O)oc2c1 | CNCTC MY330/88 |  | 32 µM |
| CCCSc1ncnc2ccccc12 | CNCTC MY80/72 |  | 250 µM |
| Fc1ccc(CSc2ncn[nH]2)cc1 | MY330/88 |  | 250 µM |
| COc1ccc(C(=O)Nn2c(C)nc3scc(-c4ccco4)c3c2=O)cc1 | CNCTC MY330/88 |  | 20 µM |
| CCCCOc1cccc(NC(=O)OC(C)CN2CCCCC2)c1 | MY330/88 |  | 62.5 µM |
| O=c1oc2ccc(Cl)cc2c(=O)n1-c1ccc(F)cc1 | CNCTC MY330/88 |  | 31 µM |
| N/C(=N\NC(CC(=O)c1ccc(-c2ccccc2)cc1)c1ccccn1)c1ccccn1 | 485 |  | 32 µg/mL |
| O=C(Nc1ccc(Br)cc1)c1ncccc1O | CNCTC MY330/88 |  | 62.5 µM |
| Cc1nc2scc(-c3ccco3)c2c(=O)n1N | CNCTC MY330/88 |  | 510 µM |
| Cc1cccc(C(=O)CC(N/N=C(\N)c2ccccn2)c2ccccn2)c1 | 485 |  | 16 µg/mL |
| Cc1nc2scc(-c3ccco3)c2c(=O)n1/N=C/c1cccs1 | CNCTC MY330/88 |  | 65 µM |
| O=C(NCc1ccccn1)c1cc(Cl)ccc1O | ATCC 25291 | 14 d | 125 µM |
| O=C(Nc1ccccc1)c1ccccc1O | CNCTC MY330/88 |  | 62.5 µM |
| Cc1ccc(C(=O)NCc2cccnc2)c(O)c1 | ATCC 25291 | 21 d | 1000 µM |
| O=C(NCc1ccc(C(F)(F)F)cc1)c1ncccc1O | CNCTC MY330/88 |  | 62.5 µM |
| C[C@H]1COc2c(N3CCN(C)CC3)c(F)cc3c(=O)c(C(=O)O)cn1c23 | MS-6 |  | 0.5 µg/mL |
| Cc1c(CN2CCSCC2)cc(-c2ccc(F)cc2)n1-c1ccccc1 | 103317 |  | 16 µg/mL |
| Cc1cccc(CSc2ncn[nH]2)c1 | MY330/88 |  | 500 µM |
| Cc1ccc(C(=O)CC(N/N=C(\N)c2ccccn2)c2ccccn2)cc1 | 485 |  | 80 µg/mL |
| Cc1nc2scc(-c3ccco3)c2c(=O)n1NC(=O)c1ccc(Cl)cc1 | CNCTC MY330/88 |  | 8 µM |
| c1ccc(CSc2ncn[nH]2)cc1 | MY330/88 |  | 500 µM |
| O=c1oc2ccccc2c(=O)n1-c1ccc(C(F)(F)F)cc1 | CNCTC MY330/88 |  | 16 µM |
| CCCCCCOc1cccc(NC(=O)OCCN2CCCCC2)c1 | MY330/88 |  | 32 µM |
| CCCCCC[N+]1(CCOC(=O)Nc2ccccc2OCCCCC)CCCCC1 | MY330/88 |  | 62.5 µM |
| Cc1nc2scc(-c3ccco3)c2c(=O)n1NC(=O)c1ccc([N+](=O)[O-])cc1 | CNCTC MY330/88 |  | 22 µM |
| Cc1ccc(-n2nnc(SCc3ccc(F)cc3)n2)cc1 | CNCTC MY330/88 |  | 125 µM |
| O=Cc1coc2ccc(F)cc2c1=O | MY330/88 |  | 500 µM |
| O=c1oc2ccc(Cl)cc2c(=O)n1-c1cccc([N+](=O)[O-])c1 | CNCTC MY330/88 |  | 16 µM |
| O=Cc1coc2ccc([N+](=O)[O-])cc2c1=O | MY330/88 |  | 500 µM |
| CCCCSc1ncnc2ccccc12 | CNCTC MY80/72 |  | 32 µM |

A second listing of 5 rows from above:

compound	strain or isolate	setting	value
CCCCCCOc1ccccc1NC(=O)OC(C)CN1CCCCC1	MY330/88		62.5 µM
O=C(Nc1ccc(Br)cc1)c1ncccc1O	CNCTC MY330/88		62.5 µM
CCCCCCOc1cccc(NC(=O)OCCN2CCCCC2)c1	MY330/88		32 µM
Cc1ccc(-n2nnc(SCc3ccc(F)cc3)n2)cc1	CNCTC MY330/88		125 µM
CCCCCCSc1ncnc2ccccc12	CNCTC MY66/72		63 µM